Measurements reported in PubChem BioAssay AID1259414 (Drosophila RNAi Screening Center, 2018)

Screen: 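Host factors increasing or decreasing Wolbachia levels in cultured fly cells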 (primary screen)
Cells: Drosophila JW18 cells infected with Wolbachia
Reagent: long dsRNA against Drosophila genes, 0.25 µg dsRNA per well of a 384-well plate
Time to read-out: 5 days
Treatment: cells persistently infected with Wolbachia before knock-down; no added drug
Read-out: 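Imaged fluorescence in situ signal for Wolbachia 23S rRNA per DAPI-counted host cell, given as a robust z-score within each plate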
Direction: Wolbachia per cell robust z: higher = more Wolbachia per host cell than the plate typical
Active means: 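Active if absolute robust z reaches 1.5 in two or more of three replicates, leaving out multi- or no-target dsRNAs, genes unexpressed in JW18 and A1 wells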
The screen tested about 24,000 reagents; this is a random part of those that have a named target and a result. Of all reagents, about 1,210 (5%) were called active. 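Inactive calls also include excluded dsRNAs with several or no targets, genes unexpressed in JW18, and well A1, regardless of score.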 Entries without a mark were called inactive. Names joined by + are all predicted targets of the reagent.

no.	predicted target	amplicon	Wolbachia per cell robust z, rep 1	Wolbachia per cell robust z, rep 2	Wolbachia per cell robust z, rep 3
1	Hey (GeneID 35764)	DRSC23030	-1.12	-0.377	-4.81
2	CG11162 (GeneID 32325)	DRSC19391	0.509	0.842	-0.832
3	CG11162 (GeneID 32325)	DRSC22538	0.946	0.701	-0.589
4	CG12725 (GeneID 32298)	DRSC19501	-0.734	-0.669	-4.17
5	CG12725 (GeneID 32298)	DRSC24026	0.528	0.028	0.382
6	Fcp1 (GeneID 37925)	DRSC04121	-0.57	-1.23	-2.12
7	Fcp1 (GeneID 37925)	DRSC26715	-0.0623	1.25	1.05
8	Shab (GeneID 38352)	DRSC08013	1.39	0.433	0.731
9	Shab (GeneID 38352)	DRSC08643	0.766	-0.0574	0.507
10	Shab (GeneID 38352)	DRSC08699	-0.677	0.333	-0.264
11	Shab (GeneID 38352)	DRSC28359	-0.553	0.457	0.593
12	Polr2F (GeneID 48312)	DRSC12366	2.7 (active)	2.04	1.45
13	Polr2F (GeneID 48312)	DRSC28784	0.744	1.64	1.31
14	CG9130 + CG9133	DRSC22010	-0.8	0.88	0.764
15	CG9130 + CG9133	DRSC29697	-0.199	0.508	-5.11
16	nab (GeneID 3346237)	DRSC08455	0.858	0.267	0.0881
17	nab (GeneID 3346237)	DRSC08456	-7.46	-2.14	1.34
18	Tbcc (GeneID 319048)	DRSC00223	-0.482	-1.48	0.403
19	Tbcc (GeneID 319048)	DRSC30109	-0.334	0.139	-1.43
20	Cpr62Bb (GeneID 38240)	DRSC08404	-1.61	0.256	-0.00493
21	Cpr62Bb (GeneID 38240)	DRSC27624	-2.6	0.434	-0.688
22	CG7702 (GeneID 42242)	DRSC16293	0.162	-0.000619	2.04
23	CG7702 (GeneID 42242)	DRSC27592	0.44	-0.0309	-1.24
24	CG7069 (GeneID 42621)	DRSC16188	1.06	1.34	1.99
25	robo1 (GeneID 37603)	DRSC04712	-6.19	-0.469	-0.973
26	tbc (GeneID 318059)	DRSC20540	-1.82	-1.36	-4.09
27	tbc (GeneID 318059)	DRSC23084	0.493	1.03	0.76
28	tbc (GeneID 318059)	DRSC29058	-0.659	1.08	0.622
29	Vps37B (GeneID 40624)	DRSC12165	0.542	0.488	0.0761
30	Tps1 (GeneID 33642)	DRSC00269	-1.68	0.486	-0.762
31	Tps1 (GeneID 33642)	DRSC27331	-1.06	-0.411	1.64
32	CG6324 (GeneID 32481)	DRSC19985	0.6	0.511	-0.167
33	Vkor (GeneID 3346188)	DRSC37855	0.534	1.18	0.351
34	Sdr (GeneID 41809)	DRSC15517	0.12	0.35	0.247
35	hoka (GeneID 38588)	DRSC08313	-0.819	-1.02	-0.865
36	Rph (GeneID 32002)	DRSC17790	0.66	-1.02	0.233
37	Rph (GeneID 32002)	DRSC23887	0.885	0.883	0.59
38	p24-1 (GeneID 32140)	DRSC19827	-3.08	0.295	0.289
39	p24-1 (GeneID 32140)	DRSC26718	-0.229	0.256	1.69
40	PolZ2 (GeneID 40677)	DRSC12325	-7.89	-0.868	-1.14
41	CG6356 (GeneID 42893)	DRSC16026	0.9	-2.12	0.143
42	CG31808 (GeneID 10178782)	DRSC22962	1.18	0.604	1.42
43	CG31808 (GeneID 10178782)	DRSC29167	0.209	0.674	1.18
44	CG13727 (GeneID 39931)	DRSC10055	-3.79	-3.58	-2.49
45	SecCl (GeneID 39949)	DRSC10887	-0.694	1.68	-0.527
46	Ac78C (GeneID 40333)	DRSC11467	0.526	0.0157	0.424
47	Ac78C (GeneID 40333)	DRSC11602	-0.989	-0.584	-0.183
48	Ac78C (GeneID 40333)	DRSC11619	0.645	0.665	-0.8
